Test results from patent publication US10414725B2, “Pyrrolomycins and methods of using the same” (priority 2015, dated 2019).

Tests used:
[1] = system: Staphyloccocus aureus USA300; experiment: Minimum inhibitory concentration, broth microdilution, Staphylococcus aureus; assay type: cell-based; conditions: for SI SA (IC50 Hela cytotoxicity / MIC): ratio to MIC against SA
[2] = system: Bacillus anthracis V770-NP1-R; assay type: cell-based

SMILES	SI SA (IC50 Hela cytotoxicity / MIC) [1]	SI BA (IC50 Hela cytotoxicity / MIC) [2]	fold less potent/active than 3 ([1]; SA MIC) [fold]	also measured
O=C(c1cc(F)cc(F)c1O)c1[nH]c(Br)c(Br)c1Br [Compound 3]	> 275	–	–	–
O=C(c1cc(Br)c(F)[nH]1)c1cc(Cl)cc(Cl)c1O [Compound 4]	> 484	> 751	–	–
COc1c(F)cc(F)cc1C(=O)c1[nH]c(Br)c(Br)c1Br [Compound 10]	–	–	18	–
COc1c(F)cc(F)cc1C(=O)c1c(Br)c(Br)c(Br)n1C [Compound 11]	–	–	24	–
Cn1c(Br)c(Br)c(Br)c1C(=O)c1cc(F)cc(F)c1O [Compound 12]	–	–	24	–
O=C(c1cc(Br)c(Br)[nH]1)c1cc(Cl)cc(Cl)c1O [Compound 17]	>567	>220	–	–
O=C(c1cc(Cl)cc(Cl)c1O)c1[nH]c(F)c(Br)c1Br [Compound 18]	>229	>346	–	–
O=C(c1cc(Br)c[nH]1)c1cc(Cl)cc(Cl)c1O [Compound 19]	–	–	–	fold less active than congeners 4 and 17 ([1]; SA MIC): at least 54 fold
